Results taken from article PMC3280542, “Differential Expression of the Demosponge (Suberites domuncula) Carotenoid Oxygenases in Response to Light: Protection Mechanism Against the Self-Produced Toxic Protein (Suberitine)” (Marine Drugs, 2012).

Test system: Suberitine
Details: Suberitine 3 µg/mL (0.4 µM) preincubated with retinoid 15 min at 37 °C; indirect erythrocyte read-out

SMILES | % reduction of hemagglutination activity at the same ratio [%]
CC1=C(/C=C/C(C)=C/C=C/C(C)=C/C(=O)O)C(C)(C)CCC1 [all-E-retinoic acid] | 19
CC1=C(/C=C/C(C)=C/C=C/C(C)=C/CO)C(C)(C)CCC1 [all-E-retinol] | 34
CC1=C(/C=C/C(C)=C/C=C/C(C)=C/C=C/C=C(C)/C=C/C=C(C)/C=C/C2=C(C)CCCC2(C)C)C(C)(C)CCC1 [β-carotene] | 27
